PubChem BioAssay AID1224833 | University of Georgia – 2016
This is a random part of about 12,000 reagents tested. About 5,600 of all reagents (46%) count as active. 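Active calls cover z-scores past 1 in both directions, so they include lowered as well as raised rotavirus replication.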 Unmarked entries are inactive.

Test: 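Human genes whose knock-down alters rotavirus replication in monkey cells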 (primary screen)
Cell system: monkey MA104 kidney cells
Reagent: siRNA pool against human genes, 50 nM
Duration: 48 h knock-down before infection; read 24 h after infection
Conditions: infection with rotavirus strain RV3 two days after transfection; infectious dose for this stage not given
Measured: 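Rotavirus antigen per well by fluorescent immunoassay, normalised to non-targeting control wells on each plate and given as a standard z-score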
Direction: z-score vs non-targeting control: higher = more rotavirus replication than with non-targeting control
Rule for the call: In these data the active calls have z-score vs non-targeting control at about -1 or lower, or at about 1 or higher
Calls: active = z-score beyond 1 either way; inactive = z-score within 1 of zero

ART4 — z-score vs non-targeting control: -1.63 (active)
CALHM5 — z-score vs non-targeting control: -0.0393
KANSL1 — z-score vs non-targeting control: 1.46 (active)
NLRP8 — z-score vs non-targeting control: -2.05 (active)
MSMB — z-score vs non-targeting control: 1.79 (active)
PPIL3 — z-score vs non-targeting control: -1.24 (active)
SCIMP — z-score vs non-targeting control: -2.03 (active)
POTED — z-score vs non-targeting control: 0.378
PRDM1 — z-score vs non-targeting control: 0.881
OR9G9 — z-score vs non-targeting control: -2.12 (active)
PITX2 — z-score vs non-targeting control: 1.8 (active)
KRT2 — z-score vs non-targeting control: -0.0309
TEX11 — z-score vs non-targeting control: -0.0827
YJEFN3 — z-score vs non-targeting control: 0.848
ITM2C — z-score vs non-targeting control: -2.81 (active)
CSTPP1 — z-score vs non-targeting control: 1.35 (active)
MTHFD1 — z-score vs non-targeting control: -0.646
SND1 — z-score vs non-targeting control: -1.01 (active)
WDR4 — z-score vs non-targeting control: 0.737
MSANTD4 — z-score vs non-targeting control: -0.73
ARMH3 — z-score vs non-targeting control: -0.819
EVL — z-score vs non-targeting control: -0.596
AGR3 — z-score vs non-targeting control: -1.59 (active)
CAMK2N2 — z-score vs non-targeting control: 1.73 (active)
MIA3 — z-score vs non-targeting control: -1.34 (active)
OR51A7 — z-score vs non-targeting control: -2.2 (active)
HSD17B10 — z-score vs non-targeting control: -1.26 (active)
DNAH6 — z-score vs non-targeting control: -0.725
ASAH2 — z-score vs non-targeting control: 1.07 (active)
MAJIN — z-score vs non-targeting control: -1.08 (active)
SFTPA1 — z-score vs non-targeting control: -0.292
HBA1 — z-score vs non-targeting control: -1.8 (active)
SLC25A17 — z-score vs non-targeting control: 0.64
OR4N4 — z-score vs non-targeting control: -1.82 (active)
HSFY1 — z-score vs non-targeting control: 1.17 (active)
MTFP1 — z-score vs non-targeting control: -2.93 (active)
C2CD2L — z-score vs non-targeting control: 0.228
ROBO1 — z-score vs non-targeting control: -1.47 (active)
NBN — z-score vs non-targeting control: -1.32 (active)
PADI2 — z-score vs non-targeting control: -0.778
CXXC4 — z-score vs non-targeting control: -1.41 (active)
RCOR1 — z-score vs non-targeting control: -1.61 (active)
PCDH19 — z-score vs non-targeting control: 0.174
THYN1 — z-score vs non-targeting control: 0.992
PARG — z-score vs non-targeting control: -0.765
ZNF574 — z-score vs non-targeting control: -0.0829
PALB2 — z-score vs non-targeting control: -0.607
